Measurements as given in patent CN117659177A (SHENZHEN BAY LABORATORY; UNIV TSINGHUA, dated 2024).

T1: 重组猴痘病毒表面蛋白M1R-His (Monkeypox virus)
T1 chain: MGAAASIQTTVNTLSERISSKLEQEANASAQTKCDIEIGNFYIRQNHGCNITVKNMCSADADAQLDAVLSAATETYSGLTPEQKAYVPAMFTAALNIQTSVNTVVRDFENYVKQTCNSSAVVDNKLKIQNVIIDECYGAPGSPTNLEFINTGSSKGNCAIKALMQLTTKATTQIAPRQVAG


Biological target: T1, 重组猴痘病毒表面蛋白M1R-His
Test: ELISA, recombinant M1R coated at 2 μg/mL, IgG from 293T cells

Binder	binding result
抗体A100 (antibody, V domains shown) VH: EVQLLESGGGLVHPGGSLRLSCVASGFTFSRYSMNWVRQAPGKGLEWISYIDSRSGGISYADSVKGRFTISRDNAKNSLSLQMNSLRAEDTAVYYCVRDRFNWNNDDVFFDYWGQGTLVTVSS VL: NIQLTQSPSSLSASVGDRVTITCRASQSISTYLNWYQQKPGKAPKLLIYAVSSLQSGVPSRFSGSQSGTDFSLTISSLQPEDFATYYCQQALSFPPTFGQGTKVEIKR	binds
抗体A124 (antibody, V domains shown) VH: EVQLLESGGGLVKPGGSLRLSCAASGFTFSSYSMNWVRQAPGKGLEWVSSISSSSSYIYYADSVKGRFTISRDNAKNSLYLQMNSLRAEDTAVYYCARDLTLADYYYYGMDVWGQGTTVTVSS VL: NIQLTQSPSSLSASVGDRVTITCRASQTITRYLNWYQHKPGKAPNLLIYGASILQSGVPSRFSGSYSGTDFTLTISSLQPEDFATYYCQQSYSTPYTFGQGTKLEIKR	binds
抗体A129 (antibody, V domains shown) VH: EVQLVESGGGVVQPGRSLRLSCAVSGLRLTNSGMHWVRQAPGKGLQWVAVLWSDGRNTDYEESVKGRFTISRDDSKNTLFLEMNTVGAEDTAMYYCVTDAGGSNSWEFFFDHWGQGTMVTVSS VL: NIQLTQSPSSVSASVGDRVTITCRASQGISSWLAWYQQKPGKAPKLLIYAASSLQSGVPSRFSGSGSGTDFTLTISSLQPEDFATYYCQQANSFPFTFGPGTKVDIKR	binds
抗体A012 (antibody, V domains shown) VH: EVQLLESGAEVKKPGESLKISCKGSGYSFTTYWIAWVRQMPGKGLEWMGIIYPGDSDTRYSPSFRGQVSISADKSINTAYLQWNSLKASDTAMYYCARPAVAGTPDAFDIWGQGTLVTVSS VL: DIQLTQSPSSVSASVGERVTITCRASQGVGNWLAWYQHKPGKVPKLLIHSASNLQSGVPSRFSGSGFGTDFTLTISSLQPEDFATYYCQQASSFPLTFGGGTKVEIKR	binds
抗体A046 (antibody, V domains shown) VH: EVQLLESGGGLVQPGGSLRLSCVASGFTFSDHYMDWVRQAPGKGLEWVGRIRNKANRYTPEYAASVKGRFTFSRDDSKNSLYLQMNSLKIEDTAVYYCARVGPPVAAGHYDALDIWGQGTTVTVSS VL: AIRMTQSPSFLSASVGDRVTITCRASQGISDYLAWYQQTPGKAPKLLIYAASSLQSGVPSRFSGSGSGTDFTLTISSLQPEDFATYYCQQANSFPYTFGQGTKLEIKR	binds
抗体A051 (antibody, V domains shown) VH: EVQLLESGGGLVKPGGSLRLSCAASGFTFSNAWMSWVRQAPGKGLEWVSGISGSGGSTYYADSVKGRFTISRDNSKNTLYLQMNSLRAEDTAVYYCAITPLSSAYGMDVWGQGTPVTVSS VL: DIQMTQSPSSLSASVGDRVTITCRASQGISTWLAWYQQKPGKAPKLLIYAASTLQSGVPSRFSGSRSGADFTLTINSLQPEDFATYYCQQTNNFPYTFGRGTKLDIKR	binds
抗体A073 (antibody, V domains shown) VH: not shown VL: DIQMIQSPSTLSASVGDRVTITCRASQSISIWLAWYQQKPGRAPKLLINAASNLQSGVPSRFSGSGSGTEFALTISSLQPEDFATYYCQQSYAKPTFGQGTTVELKR	binds
抗体A094 (antibody, V domains shown) VH: EVQLLESGGGLVQPGGSLRLSCAASGFTFRNYAMSWVRQAPGKGLEWVSSITSSGRYTYYADSVRGRFTISRDNANNSLYLQMSSLRAEDTAVYYCATELGDYWGQGTMVTVSS VL: DIQMTQSPSSVSASVGDRVTITCRASQGISSWLSWYQQKPGRAPKLLISAASSLQTGVPSRFSGSGSGTHFTLTITSLQPEDFATYYCQQSDTFPITFGQGTRLEIKR	binds

Biological target: T1, 重组猴痘病毒表面蛋白M1R-His
Test: not given

Binder	binding result
抗体A138 (antibody, V domains shown) VH: QVQLLESGGGLVKPGGSLRLSCAASGFTFRDYYMSWIREAPGKGLEWVASISRSGTTIYYADSVKGRFTISRDNAKNSLYLQMNSLRAEDTAVYYCARDEASSNYAFDYWGQGTPVTVSS VL: DIQLTQSPSSVSASVGDGVTITCRASQPIGTWVAWYQQKPGKAPKLLISGASSLQSGLPSRFSGRKSGTDFTLTISSLQPDDSATYFCQQTNTFPLTFGQGTRLEIKR	binds
